± gives the expanded uncertainty stated by the source.

Here are results for one molecule from the NIST ThermoML archive (doi:10.1021/je060138i).

The conditions of this series: Crystal; visual observation.

Regarding `O=P1(Cl)OCC2(CO1)COP(=O)(Cl)OC2` (stereo unspecified), the Normal melting temperature was determined as 239.00 ± 2.9 °C.
